Taken from: PubChem BioAssay AID1259414 (Drosophila RNAi Screening Center, 2018)
The deposit covers about 24,000 reagents; below is a random part of those with a known target gene and a result. Of all reagents, about 1,210 (5%) are marked active. 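Inactive calls also include excluded dsRNAs with several or no targets, genes unexpressed in JW18, and well A1, regardless of score.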 Reagents against one gene are numbered here. A plus sign joins genes that one reagent is predicted to hit.

Aim: 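Host factors increasing or decreasing Wolbachia levels in cultured fly cells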 (primary screen)
System: Drosophila JW18 cells infected with Wolbachia
Reagent: long dsRNA against Drosophila genes, 0.25 µg dsRNA per well of a 384-well plate
Time to read-out: 5 days
Conditions: cells persistently infected with Wolbachia before knock-down; no added drug
Measurement: 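Automated imaging of bacterial rRNA staining divided by host cell count, reported as plate-normalised robust z-score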
Reading the numbers: Wolbachia per cell robust z: higher = more Wolbachia per host cell than the plate typical
Rule for the call: 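Active if absolute robust z reaches 1.5 in two or more of three replicates, leaving out multi- or no-target dsRNAs, genes unexpressed in JW18 and A1 wells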

Target gene	reagent no.	Wolbachia per cell robust z, rep 1	Wolbachia per cell robust z, rep 2	Wolbachia per cell robust z, rep 3	call
unc-5	1	0.457	0.187	0.371	inactive
unc-5	2	-3.17	0.149	0.0904	inactive
unc-5	3	0.684	0.238	0.662	inactive
Vps13B	1	-0.365	-5.12	-3.47	active
Fatp2 + CG44253	1	0.492	-0.205	0.274	inactive
CG13983	1	1.1	0.0444	0.557	inactive
CG13983	2	0.807	-0.296	1.1	inactive
mthl4	1	-2.95	-0.396	-2.8	active
kipf	1	-0.0756	0.654	0.413	inactive
kipf	2	0.641	-0.359	-1.19	inactive
kipf	3	-0.135	0.441	0.207	inactive
CG34280	1	0.488	-2.41	0.0038	inactive
Paris	1	-0.387	0.629	0.889	inactive
Paris	2	-1.34	0.53	-0.194	inactive
Ugt302E1	1	-2.2	0.674	-2.64	inactive
Ugt302E1	2	-0.179	0.71	-7.1	inactive
CG10340	1	-2.37	-8.15	-5.54	active
Amnionless	1	-0.645	-0.223	0.0396	inactive
CG33125	1	-0.536	-1.1	-1.68	inactive
CG33125	2	-0.949	-0.761	0.475	inactive
RpS21	1	-0.574	0.649	0.168	inactive
RpS21	2	1.75	4.79	3.85	active
CG1690	1	0.628	-3.49	0.761	inactive
Ir62a	1	-0.582	0.858	0.637	inactive
CG42402	1	0.0575	-0.957	0.277	inactive
CG42402	2	0.671	-4.42	-1.68	inactive
Mal-B1	1	-6.68	0.46	1.99	inactive
Mal-B1	2	0.769	-0.103	1.07	inactive
CG8138	1	0.431	1.24	-4.77	inactive
Treh	1	0.0387	1.07	0.196	inactive
Treh	2	0.533	-0.544	0.268	inactive
ND-ACP	1	0.205	-0.981	-3.24	inactive
CG8008	1	0.381	0.499	-0.193	inactive
CG8008	2	0.388	0.944	-2.27	inactive
CG8008	3	1.44	0.99	0.227	inactive
gsb-n	1	-0.219	-0.596	0.377	inactive
gsb-n	2	0.747	0.347	-0.592	inactive
CG3708	1	-0.721	-2.86	-0.835	inactive
nmdyn-D7	1	0.402	-0.42	-0.352	inactive
CG11756	1	-2.83	-0.863	0.384	inactive
CG11756	2	-0.0171	-0.534	0.0211	inactive
CG5079	1	-0.235	0.886	0.868	inactive
CG1951	1	-4.19	-0.128	1.44	inactive
CG2685	1	1.22	2.29	2.44	active
CG2685	2	0.493	0.655	-0.531	inactive
Bruce	1	-2.05	-5.14	0.101	active

7 consecutive entries already listed, for reference:
Target gene	reagent no.	Wolbachia per cell robust z, rep 1	Wolbachia per cell robust z, rep 2	Wolbachia per cell robust z, rep 3	call
CG1690	1	0.628	-3.49	0.761	inactive
Ir62a	1	-0.582	0.858	0.637	inactive
CG42402	1	0.0575	-0.957	0.277	inactive
CG42402	2	0.671	-4.42	-1.68	inactive
Mal-B1	1	-6.68	0.46	1.99	inactive
Mal-B1	2	0.769	-0.103	1.07	inactive
CG8138	1	0.431	1.24	-4.77	inactive
